Measurements as given in the CheMixHub ionic liquid set.

Experiment: xn = mol fraction of the nth substance listed

O=S(=O)(F)[N-]S(=O)(=O)F.[Na+] + O=C1CCCO1
303.15 K, 100 kPa
Details	electrical conductivity [S/m]	viscosity [mPa·s]
x1 = 0.04762	0.655 ± 0.039	2.58 ± 0.1
x1 = 0.09091	1.14 ± 0.07	4.06 ± 0.16
x1 = 0.1	1.5 ± 0.09	4.48 ± 0.18
x1 = 0.1111	1.51 ± 0.09	5.06 ± 0.2
x1 = 0.125	1.53 ± 0.09	5.96 ± 0.24
x1 = 0.1429	1.56 ± 0.09	7.32 ± 0.3
x1 = 0.1667	1.34 ± 0.08	9.84 ± 0.4
x1 = 0.2	1.03 ± 0.06	14.6 ± 0.6
x1 = 0.25	0.714 ± 0.043	28.6 ± 1.2
x1 = 0.3333	0.325 ± 0.02	90.7 ± 3.9
x1 = 0.5	0.0556 ± 0.0033	1164 ± 86

O=S(=O)(F)[N-]S(=O)(=O)F.[Na+] + COCCOCCOC
100 kPa
Details	electrical conductivity, 301.15 K [S/m]	viscosity, 298.1 K [mPa·s]	viscosity, 301.1 K [mPa·s]
x1 = 0.02439	0.21 ± 0.01	–	1.2 ± 0.1
x1 = 0.03226	0.3 ± 0.01	–	1.3 ± 0.1
x1 = 0.04762	0.47 ± 0.01	–	1.4 ± 0.1
x1 = 0.0625	0.67 ± 0.01	–	1.6 ± 0.1
x1 = 0.09091	1 ± 0.02	–	2 ± 0.1
x1 = 0.1111	1.04 ± 0.02	–	2.3 ± 0.1
x1 = 0.1429	1.11 ± 0.02	–	2.9 ± 0.1
x1 = 0.1667	1.19 ± 0.02	–	3.7 ± 0.1
x1 = 0.2	1.2 ± 0.02	–	5.5 ± 0.1
x1 = 0.25	0.97 ± 0.02	–	9.4 ± 0.2
x1 = 0.3333	0.67 ± 0.01	27 ± 1	23 ± 4
x1 = 0.5	0.16 ± 0.01	311 ± 20	241 ± 14

CCCC[N+]1(C)CCCC1.O=C1O[B-]2(OC1=O)OC(=O)C(=O)O2 + CCCC[N+]1(C)CCCC1.O=S(=O)(F)[N-]S(=O)(=O)F
101.3 kPa
Details	viscosity [mPa·s]
288.15 K, x2 = 0.6	880 ± 190
303.15 K, x2 = 0.2	850 ± 180
308.15 K, x2 = 0	1055 ± 210
313.15 K, x2 = 0.6	154 ± 32
318.15 K, x2 = 0	448 ± 91
353.15 K, x2 = 0.2	43.2 ± 8.7

O=S(=O)(F)[N-]S(=O)(=O)F.[Na+] + COCCOC
100 kPa
Details	electrical conductivity, 301.15 K [S/m]	viscosity, 298.1 K [mPa·s]	viscosity, 301.1 K [mPa·s]
x1 = 0.02439	0.47 ± 0.01	–	0.6 ± 0.1
x1 = 0.03226	0.65 ± 0.01	–	0.6 ± 0.1
x1 = 0.04762	1 ± 0.02	–	0.7 ± 0.1
x1 = 0.0625	1.34 ± 0.03	–	0.8 ± 0.1
x1 = 0.09091	1.84 ± 0.04	–	1 ± 0.1
x1 = 0.1111	1.94 ± 0.04	–	1.4 ± 0.1
x1 = 0.1429	2.14 ± 0.04	–	2 ± 0.1
x1 = 0.1667	2.11 ± 0.04	–	2.7 ± 0.1
x1 = 0.2	1.71 ± 0.03	–	4.5 ± 0.1
x1 = 0.25	1.32 ± 0.03	11 ± 1	10 ± 1
x1 = 0.3333	0.66 ± 0.01	45 ± 15	39 ± 11
x1 = 0.5	0.07 ± 0.01	750 ± 69	561 ± 47

O=S(=O)(F)[N-]S(=O)(=O)F.[Na+] + COCCOCCOCCOC
Details	viscosity [mPa·s]
298.15 K, 100 kPa, x1 = 0.5	496 ± 50

± gives the uncertainty stated by the source.
